Laboratory results taken from ChEMBL document CHEMBL1133246, “Phenyl sulfur mustard derivatives of distamycin A” (2000).

System: L1210
Assay: In vitro cytotoxicity against L1210 murine leukemia cells

Row | SMILES | IC50 [nM]
1 | Cn1cc(NC(=O)c2cc(NC(=O)c3cc(NC(=O)/C=C/c4ccc(SCCCl)cc4)cn3C)cn2C)cc1C(=O)NCCC(=N)N | 0.9
2 | Cn1cc(NC(=O)c2cc(NC(=O)c3cc(NC(=O)c4ccc([S+]([O-])CCCl)cc4)cn3C)cn2C)cc1C(=O)NCCC(=N)N (configuration not stated) | > 600
3 | Cn1cc(NC(=O)c2cc(NC(=O)c3cc(NC(=O)c4ccc(SCCCl)cc4)cn3C)cn2C)cc1C(=O)NCCC(=N)N | 20.6
4 | CCN(CCCl)c1ccc(C(=O)Nc2cc(C(=O)Nc3cc(C(=O)Nc4cc(C(=O)NCCC(=N)N)n(C)c4)n(C)c3)n(C)c2)cc1 | 60
5 | Cn1cc(NC(=O)c2cc(NC(=O)c3cc(NC(=O)c4ccc(NCCCl)cc4)cn3C)cn2C)cc1C(=O)NCCC(=N)N | > 600
6 | Cn1cc(NC(=O)c2cc(NC(=O)c3cc(NC(=O)/C=C/c4ccc([S+]([O-])CCCl)cc4)cn3C)cn2C)cc1C(=O)NCCC(=N)N (configuration not stated) | > 600
7 | CCN(CCCl)c1ccc(/C=C/C(=O)Nc2cc(C(=O)Nc3cc(C(=O)Nc4cc(C(=O)NCCC(=N)N)n(C)c4)n(C)c3)n(C)c2)cc1 | 2.9
